Anti-infective test results gathered from many reports (values: NIAID ChemDB through PubChem).

Shared fields: tests in culture; organism: Poliovirus

Conditions beyond the fields shown may differ between rows.

smiles	strain	read-out	dose	cells	value
COC(C)c1ccc2c(c1)Sc1ccccc1O2	TYPE 3	inhibition	2 µg/mL	BSC-1	10%
Cn1ccnc1SCc1cccc(CSc2nc3ccccc3s2)n1		MIC			0.26 µM
CSc1nsc(C)c1C#N	Type 1/Brunhilde	EC50		HEP-2	12.5 µM
Cc1ccc(C(=O)CCCCOc2ccc(C3=NC(C)CO3)cc2)s1	TYPE 1	EC50		VERO	28.01 µM
CC(O)c1ccc2c(c1)S(=O)c1ccccc1O2	TYPE 3	inhibition	2 µg/mL	BSC-1	15%
CSc1nsc(-c2ccc(Cl)cc2)c1C#N	Type 1/Brunhilde	EC50		HEP-2	0.3 µM
CC(=O)c1cccc(Oc2ccccc2)c1	TYPE 3	inhibition	10 µg/mL	BSC-1	100%
Clc1ccc2c(c1)CC(c1ccccc1)CO2	SABIN (TYPE 2)	EC50		HEP-2	>10 µM
CSc1nsc(-c2ccc(Cl)cc2Cl)c1C#N	Type 1/Brunhilde	EC50		HEP-2	>8 µM
Cc1ccc(C(=O)CCCCCCOc2ccc(C3=NC(C)(C)CO3)cc2)s1	TYPE 2	EC50		VERO	>26.95 µM
CSc1nsc(-c2ccc(C)cc2)c1C#N	Type 1/Brunhilde	EC50		HEP-2	0.25 µM
Brc1ccc(C2=Cc3cc(Br)ccc3OC2)cc1	IB (TYPE 2)	inhibition	10 µM	HEP-2	0%
Cc1ccc(C(=O)CCCCCCOc2ccc(C3=NCCO3)cc2Cl)s1	TYPE 2	EC50		VERO	6.23 µM
CSc1nsc(-c2ccc(OCc3ccccc3)cc2)c1C#N	Type 1/Brunhilde	EC50		HEP-2	>50 µM
CC(=O)c1ccc2c(c1)Sc1ccccc1O2	TYPE 3	inhibition	0.4 µg/mL	BSC-1	99%
Clc1ccc2c(c1)C=C(c1ccccc1)CO2	IB (TYPE 2)	inhibition	10 µM	HEP-2	85%
N#Cc1c(Cl)nsc1Cl	Type 1/Brunhilde	EC50		HEP-2	>4 µM
Clc1ccc(C2COc3ccc(Cl)cc3C2)cc1	TYPE 2	EC50		HEP-2	>10 µM
CC(C)(O)c1ccc2c(c1)Sc1ccccc1O2	TYPE 3	inhibition	10 µg/mL	BSC-1	100%
Clc1ccc(C2=Cc3cc(Cl)ccc3OC2)cc1	SABIN (TYPE 2)	inhibition	10 µM	HEP-2	48%
Cc1ccc(C(=O)CCCCOc2ccc(C3=N[C@H](C)CO3)cc2)s1	TYPE 2	EC50		VERO	0.19 µM

Inhibition is in % at the dose shown (toxicity tests: loss of growth or viability). ECn is the concentration giving n% inhibition of infection, replication or growth. Blank or dashed fields: not listed here.